Test results: paper PMC12242654, “Design, Synthesis, and In Vitro Evaluation of the Leishmanicidal Activity of New Aromatic Symmetrical 1,4-Disubstituted 1,2,3-Bistriazoles” (ACS Omega, 2025)

Experiments:
[1] = test system: promastigote forms of L. amazonensis; assay: Leishmanicidal activity against promastigote forms of L. amazonensis (resazurin); format: cell-based, Leishmania amazonensis; conditions: for SI (murine) proma: CC50 murine macrophage / IC50 promastigote; for SI (human) proma: CC50 human fibroblasts / IC50 promastigote
Experimental: Promastigotes of L. amazonensis (MHOM/BR/71973/M2269) were grown on 24-well plates in Schneider’s Drosophila medium (Sigma, USA) supplemented with 10.0% (v/v) heat-inactivated fetal bovine serum and 1.0% penicillin (10000 UI mL^–1)/streptomycin (10.0 mg mL^–1) (Sigma, USA). Cells were harvested in the log phase, suspended in a fresh medium, counted in Neubauer’s chamber, and adjusted to a concentration of 1 × 10^6 cells mL^–1 using 24-well plates. The compounds were added to promastigote cultures (1 × 10^6 cells mL^–1) in the range of 0.10–40.00 μg mL^–1, solubilized in dimethyl sulfoxide (DMSO) (0.6%, v/v in all wells), and incubated at 25 °C. After 72 h of incubation, resazurin was used to detect cellular metabolic activity for the determination of 50.0% inhibitory growth concentration (IC50-promastigote). All tests were performed in triplicate at three different times, and amphotericin B (Sigma) was used as the reference drug.

[2] = test system: amastigote forms of L. amazonensis; assay: Leishmanicidal activity against intracellular amastigote forms of L. amazonensis in murine peritoneal macrophages; format: cell-based, Leishmania amazonensis; conditions: for SI (human) ama: CC50 human fibroblasts / IC50 amastigote; for SI (murine) ama: CC50 murine macrophage / IC50 amastigote
Experimental: To evaluate the leishmanicidal activity in amastigotes, murine peritoneal macrophages were used and maintained in RPMI-1640 medium at 37 °C and 5% CO2 in 24-well plates. After 24 h, the nonadherent macrophages were removed, and these cells were infected with Leishmania (L.) amazonensis promastigotes in the stationary phase of the proliferation curve at a ratio of 10:1. The day after infection, the noninternalized parasites were removed, and the compounds to be evaluated were added at concentrations of 40, 10, 5, and 0.1 μg mL^–1 and incubated for 72 h at 37 °C and 5% CO2; they were then fixed in methanol and stained with 10% Giemsa (MERCK) for subsequent analysis by light microscopy. To assess the effect of the compounds, the number of amastigotes/macrophages and the number of infected macrophages were evaluated. The percentage of infected cells was considered to illustrate the results since these are expressed as CI50-amastigote. ,

| SMILES | SI (murine) proma [1] | SI (human) proma [1] | SI (human) ama [2] | SI (murine) ama [2] |
| --- | --- | --- | --- | --- |
| Cc1ccc(-c2cn(CC(O)Cn3cc(-c4ccc(C)cc4)nn3)nn2)cc1 [8c, 1,3-Bis(4-(p-tolyl)-1H-1,2,3-triazol-1-yl)propan-2-ol] | 2.43 |  |  |  |
| OC(Cn1cc(C(=NNc2nc3ccccc3s2)c2ccccc2)nn1)Cn1cc(C(=NNc2nc3ccccc3s2)c2ccccc2)nn1 (stereo not drawn) [12c, 1,3-Bis(4-((2-(benzo[d]thiazol-2-yl)hydrazineylidene)(phenyl)methyl)-1H-1,2,3-triazol-1-yl)propan-2-ol] | 2.66 |  |  |  |
| C[C@@H]1[C@H](O)[C@@H](C)/C=C/C=C/C=C/C=C/C=C/C=C/C=C/[C@H](O[C@@H]2O[C@H](C)[C@@H](O)[C@H](N)[C@@H]2O)C[C@@H]2O[C@](O)(C[C@@H](O)C[C@@H](O)[C@H](O)CC[C@@H](O)C[C@@H](O)CC(=O)O[C@H]1C)C[C@H](O)[C@H]2C(=O)O [amph B, amphotericin B, reference compound] | 19.35 | 16.39 | 12.07 | 14.26 |
| O=C(c1ccccc1)c1cn(CC(O)Cn2cc(C(=O)c3ccccc3)nn2)nn1 [compound 10, ((2-Hydroxypropane-1,3-diyl)bis(1H-1,2,3-triazole-1,4-diyl))bis(phenylmethanone)] | 8.69 | 12.87 | 8.3 | 5.61 |
| OC(c1ccccc1)c1cn(Cc2ccccc2)nn1 (stereo not drawn) [compound 4] | 7.51 |  |  |  |
| OC(Cn1cc(C(O)c2ccccc2)nn1)Cn1cc(C(O)c2ccccc2)nn1 (stereo not drawn) [compound 9, ((2-Hydroxypropane-1,3-diyl)bis(1H-1,2,3-triazole-1,4-diyl))bis(phenylmethanol)] | 2.31 |  |  |  |
